The record followed here is patent US7087375B1, “Method for determining the mechanism of HIV RT inhibitors” (priority 2000, dated 2006).

The target of the assay is T1, HIV-1 RT wild type (HXB2) (Human immunodeficiency virus type 1 group M subtype B, UniProt P04585).
T1 construct: The final RT products, in a heterodimeric form (p66/p51); made in house; host or cells: E. coli XL1-Blue (vector pKK233-2)
The assay is classed as biochemical.

Where “and” joins values, the source holds several entries; their conditions need not be identical. Equal entries are not always repeated.

By Ki is commonly meant a measure of affinity in units of concentration, obtained from inhibition or displacement. High values mean a looser hold on the target, low ones a stronger hold on the target. On to d4T-TP, for which the “Fold resistance in RT-assay relative to HXB2” value is reported as 1.0 +/− 0.1 fold; the Ki was 1.1 nM and 1.6 nM; the Ki/Km is 0.0081 and 0.01.
